In patent US20150086555A1 (THERACLONE SCIENCES, published 2015):

Assays:
[1] = target: Hemagglutinin (HA) of influenza A virus A/Solomon Islands/3/06 H1N1, on whole virions (Influenza A virus A/Solomon …)
[2] = target: Hemagglutinin (HA) of influenza A virus A/Japan/305/57 H2N2, on whole virions (Influenza A virus A/Japan/305/1957 …)
[3] = target: T1, Hemagglutinin (HA) of influenza A virus A/Wisconsin/67/05 H3N2, on whole virions (Influenza A virus A/Wisconsin/67/2005 …); experiment: ELISA on coated inactivated whole virions; transfection supernatant, set 3
T1 construct: whole, on cells

[4] = target: T1, Hemagglutinin (HA) of influenza A virus …; experiment: ELISA on coated inactivated whole virions; transfection supernatant, set 4
[5] = target: recombinant trimeric HA of H1N1 A/California/04/09 (Influenza A virus A/California/04/2009 …); experiment: SPR (ProteOn, GLM chip), HA-CA captured on anti-V5 surface, Fab in solution
[6] = target: T1, Hemagglutinin (HA) of influenza A virus …; experiment: ELISA on coated inactivated whole virions; transfection supernatant, set 5
[7] = target: T1, Hemagglutinin (HA) of influenza A virus …; experiment: ELISA on coated inactivated whole virions; transfection supernatant, set 1
[8] = target: T1, Hemagglutinin (HA) of influenza A virus …; experiment: ELISA on coated inactivated whole virions; transfection supernatant, set 2

| Binder | ELISA virus binding (OD450) [1] | ELISA virus binding (OD450) [2] | ELISA virus binding (OD450) [3] | ELISA virus binding (OD450) [4] | binding result [5] | ELISA virus binding (OD450) [6] | ELISA virus binding (OD450) [7] | ELISA virus binding (OD450) [8] |
| --- | --- | --- | --- | --- | --- | --- | --- | --- |
| TCN-532 (5262_H18) (antibody, V domains shown) VH: QVQLQESGPGLVKPSETLSLTCTVSGGSVSSETYYWSWIRQPPGKGLEWIGYIYYIGNTDYRPSLKSRVTISLDTSKNQFSLKLSSVTAADTAVYYCARGAYYDSSGYPAFYIWGQGTMVTVSS VL: QSVLTQPPSVSGAPGQRVTISCTGSSSNIGSDYDVHWYKQLPGTAPKLLIFGNSNRPSGVPDRFSGSKSGTSASLAITGLQAEDEADYYCQSYDSSLSGFHVFGSGTKVTVL | 0.13 OD450 | 0.08 OD450 | 3.43 OD450 | – | – | – | – | – |
| TCN-536 (5095_N01) (antibody, V domains shown) VH: QVQLQQWGAGLLKPSETLSLTCAVYGGSFSVSGYYWSWIRQPPGRGLEWIGEISHGGSTNYNPSLKSRVTISVDTTKNQFSLRLSSVTAADTAVYYCARGTDPDTEVYCRVGNCAAFDYWGQGSLVTVSS VL: EIILAQSPGTLSLSPGERATLSCRASQFVSTRSLAWYQQRPGQAPRLLIYGASSRATGIPDRFSGSGSGTDFTLTISRLEPEDFAVYYCQHYGYSPRYAFGQGSKVEIK | – | 0.06 OD450 | – | 3.61 OD450 | – | – | – | – |
| Fab fragment of TCN-536 (5095_N01) (Fab, V domains shown) VH: QVQLQQWGAGLLKPSETLSLTCAVYGGSFSVSGYYWSWIRQPPGRGLEWIGEISHGGSTNYNPSLKSRVTISVDTTKNQFSLRLSSVTAADTAVYYCARGTDPDTEVYCRVGNCAAFDYWGQGSLVTVSS VL: EIILAQSPGTLSLSPGERATLSCRASQFVSTRSLAWYQQRPGQAPRLLIYGASSRATGIPDRFSGSGSGTDFTLTISRLEPEDFAVYYCQHYGYSPRYAFGQGSKVEIK | – | – | – | – | no binding (tested: 50 nM as the highest Fab concentration) | – | – | – |
| TCN-504 (3251_K17) (antibody, V domains shown) VH: QVQLQESGPGLVKPSETLSLTCAVSGVSISNIDFYWGWIRQPPGKGLEWIGNIYYTGITFYNPSLSSRVAISIDTSKNQFSLTLTSVTAADTAMYYCARHYGDSEAINDAFDIWGQGTMLTVSS VL: EIVMTQSPATLSVSPGERATLSCRASQSVGNSLAWYQQRPGQAPRLLIYGASTRATGIPPRFSGSGSGTEFTLTISSLQTEDFAVYYCQQYINWRPLSFGGGTKVEIK | 3.6 OD450 | 3.62 OD450 and 3.64 OD450 and 3.51 OD450 and 3.59 OD450 | – | 3.59 OD450 | – | 3.6 OD450 | – | – |
| TCN-531 (5091_H13) (antibody, V domains shown) VH: EVQLVESGGDLVQPGRSLKLSCTGSGFTFGDYGVTWVRQAPGKGLEWVGFIRTRPWGGTADTAASVKGRFTISRDDSKSLAYLQMNSLKTEDTAVYYCCRDAPPNVEVASMTNWYFDLWGRGTLVTVSS VL: DIQLTQSPSSLSASVGDRVTITCRASQGILNCLAWYQQKPGKVPNLLMYAASTLQSGVPSRFSGSGFGTDFTLTISSLQPEDVATYYCQTYGGVSTFGGGTKVEIR | 0.1 OD450 | 0.09 OD450 | 3.59 OD450 | – | – | – | – | – |
| TCN-535 (5246_P19) (antibody, V domains shown) VH: QVQLVQSGSEVKKPGTSVKVSCTASGSVFTNYGISWVRQAPGQGLEWMGGIIPLFGAAKYAQKFQGRVTITADESTKTVYMELSRLTSKDTAIYFCAKAPRVYEYYFDQWGQGTPVTVSS VL: EIVLTQSPGTLSLSPGERATLSCRASQSVSSSQLAWYQQKPGQAPRLIIYGASTRATGIPDRFSGSGSGTDFTLTIGRLEPEDFAVFFCQQYSTSPPTFGQGTKVDFK | – | 2.45 OD450 | – | 0.1 OD450 | – | – | – | – |
| TCN-534 (5249_B02) (antibody, V domains shown) VH: QVQLVQSGAEVKKPGSSVKVSCRESGGTFNGYTITWVRQAPGQGLEWMGGIIPMMGTVNYAQKLQGRVTITTDYFTKTAYMDLNNLRSEDTAMYYCVKIRYTGQQLLWGQGTLVTVSS VL: DIQMTQSPSTLSASIGDRVTITCRASQSIASWLAWYQQKPGKAPKLLIYEAVNLESGVPSRFSGSGSGTDFTLTISSLQPDDFATYFCQHYGTISQTFGGGTKVEIK | 3.5 OD450 | 2.45 OD450 | – | 0.08 OD450 | – | – | – | – |
| TCN-523 (5248_A17) (antibody, V domains shown) VH: QVQLVQSGAEVKKPGSSVKVSCKASGGSFSNYAFSWVRQAPGQGLEWMGGTIPLLGTTNYAQKFQGRVTISADQFTSTAYMELGSLRSEDTAVYYCTRRKMTTAFDSWGQGTLVTVSS VL: QPVLTQPPSASASLGASVTLTCTLSSAYSNYKVDWYQQRPGKGPRFVMRVGTGGIVGSKGDGIPDRFSVLGSGLNRYLTIKNIQEEDESDYHCGADHGSGSNFVSPYVFGGGTKLTVL | – | 1.69 OD450 and 1.39 OD450 and 3.47 OD450 and 1.73 OD450 and 2.56 OD450 | 0.15 OD450 | 0.09 OD450 | – | 0.14 OD450 | 0.09 OD450 | 0.09 OD450 |
| TCN-529 (5297_H01) (antibody, V domains shown) VH: QITLRESGPTLVKPTQTLTLTCTFSGFSLSTNGVNVGWIRQPPGKALEWLALIYWDDDKRYSPSLKRRLTITKDTSKNQVVLTLTNMDPVDTATYYCAHRPDFYGDFEYWGPGTLVTVSS VL: QSALTQPASVSGSPGQSITISCTGSSSDIGGYNYVSWYQQHPGKAPKLMIYDVNNRPSGVSNRFSGSKSGNTASLTISGLQTDDEADYYCGSYTGSPHYVFGTGTKVTVL | 0.16 OD450 | 0.1 OD450 | 3.65 OD450 | – | – | – | – | – |

Where “and” joins values, the source holds several entries; their conditions need not be identical. Equal entries are not always repeated.
